# Test results as given in publication PMC6919601, “Identification of Plasmodium dipeptidyl aminopeptidase allosteric inhibitors by high throughput screening” (PLoS ONE, 2019).
# The chains behind the UniProt entries cited, without tags or fusion partners.
# UniProt Q8I1Y2, entry or part of it: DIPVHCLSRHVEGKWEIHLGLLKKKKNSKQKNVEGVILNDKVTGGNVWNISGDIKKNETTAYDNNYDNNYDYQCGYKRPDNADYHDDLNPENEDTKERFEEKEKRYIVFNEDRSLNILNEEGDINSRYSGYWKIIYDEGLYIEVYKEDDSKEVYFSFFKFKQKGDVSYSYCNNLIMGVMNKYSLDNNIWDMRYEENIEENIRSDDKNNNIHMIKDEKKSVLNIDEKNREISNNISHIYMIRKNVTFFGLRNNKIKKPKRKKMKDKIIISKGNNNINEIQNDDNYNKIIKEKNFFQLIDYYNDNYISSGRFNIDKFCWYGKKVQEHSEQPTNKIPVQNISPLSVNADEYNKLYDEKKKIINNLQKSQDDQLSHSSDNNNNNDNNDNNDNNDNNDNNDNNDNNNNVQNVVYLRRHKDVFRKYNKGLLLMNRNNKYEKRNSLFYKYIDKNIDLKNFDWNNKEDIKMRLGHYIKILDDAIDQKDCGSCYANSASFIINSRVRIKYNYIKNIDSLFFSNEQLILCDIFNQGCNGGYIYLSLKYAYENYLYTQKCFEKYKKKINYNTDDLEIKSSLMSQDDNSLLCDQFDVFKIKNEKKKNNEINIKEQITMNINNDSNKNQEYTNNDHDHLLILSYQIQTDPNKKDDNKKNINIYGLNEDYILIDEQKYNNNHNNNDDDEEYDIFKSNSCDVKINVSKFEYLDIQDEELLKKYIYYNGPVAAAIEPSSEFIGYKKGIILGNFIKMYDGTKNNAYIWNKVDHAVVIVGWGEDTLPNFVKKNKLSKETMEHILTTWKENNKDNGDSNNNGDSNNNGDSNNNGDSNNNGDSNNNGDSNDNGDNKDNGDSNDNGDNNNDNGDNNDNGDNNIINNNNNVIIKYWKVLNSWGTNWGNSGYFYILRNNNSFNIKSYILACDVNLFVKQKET
# pIC50: −log10 of the molar value.
# Target: DPAP3 (Plasmodium falciparum, UniProt Q8I1Y2)
# Settings: read-out: IC50 DPAP3; DPAP3 1 nM, nVal-nLeu(o-Bzl)-ACC at Km (1.4 μM); N.I. = no inhibition
row,Substance,pIC50
1,Brc1ccc(cc1)C(=O)c2nocc2C(=O)c3cccnc3 [SMDC112054],< 4.00
2,FC(F)(F)c1cc(nc(SCC(=O)N2CCOCC2)c1C#N)c3cccs3 [SMDC97214],~4.00
